A mixed list of measured activities; the numbers were collected in NIAID ChemDB.

All rows: toxicity to cultured cells; cells: Huh7.5; measure: CC50

CCn is the concentration with n% toxicity to the cells. Neighbouring rows are from separate reports. An empty or dashed field is not shown.

SMILES | method | result
C=Cc1c(C)c2cc3nc(c4c5nc(cc6[nH]c(cc1[nH]2)c(C)c6CC)C(C)C5C(=O)C4CC(=O)OC)[C@@H](CCC(=O)OC/C=C(\C)CCC[C@@H](C)CCC[C@@H](C)CCCC(C)C)[C@@H]3C | WST | 328 µg/mL
Cc1ccc(CNc2ccc3nc[nH]c3c2)o1 | MTT | >200 µM
N#Cc1c(SCc2ccncc2)sc2c(=O)[nH]c(=O)[nH]c12 | MTS | >224 µM
O=C(OC[C@H]1O[C@@H](OC(=O)c2cc(O)c(O)c(OC(=O)c3cc(O)c(O)c(O)c3)c2)[C@H](OC(=O)c2cc(O)c(O)c(OC(=O)c3cc(O)c(O)c(O)c3)c2)[C@@H](OC(=O)c2cc(O)c(O)c(OC(=O)c3cc(O)c(O)c(O)c3)c2)[C@@H]1OC(=O)c1cc(O)c(O)c(OC(=O)c2cc(O)c(O)c(O)c2)c1)c1cc(O)c(O)c(OC(=O)c2cc(O)c(O)c(O)c2)c1 | MTS | 146.1 µM
COC(=O)C1=C(C(=O)OC)C2N(C)c3ccc(OC)cc3[C@@]23C[C@@H](C(=O)OC)N(C(=O)CC(C)C)C3=N1 | XTT | >320 µM
O=C(O)CCn1ncc2c(=O)[nH]cnc21 | MTS | 180 µM
OC[C@@H]1[C@@H](O)[C@H](O)[C@@H](O)CN1CCCCCC1(O)CCCCC1 | MTT | >500 µM
O=[N+]([O-])c1ccc(CNc2ccc3ncoc3c2)cc1 | MTT | >200 µM
CC1=C(/C=C/C(C)=C\C=C\C(C)=C\C(=O)O)C(C)(C)CCC1 | WST | >100 µM
Nc1nc2c(cnn2[C@H](C=O)O[C@@H](C=O)CO)c(=O)[nH]1 | MTS | >224 µM
Clc1ccc(Cn2c(CN3CCCC3)nc3ccccc32)cc1 | MTT | 36.4 µM
O=C(Cn1sc2ccccc2c1=O)Nc1ccccc1I | ATP | 26 µM
C=CCN1c2ccccc2[C@]23CC(=O)N(Cc4ccccc4)C2=NC(C(=O)OC)=C(C(=O)OC)C13 | XTT | >100 µM
C[C@@H]1O[C@@H](O[C@H]2[C@H](O)[C@@H](O)[C@H](O[C@H]3CC[C@]4(C)[C@H]5C=C[C@]67OC[C@@]8(CCC(C)(C)C[C@H]86)[C@@H](O)C[C@@]7(C)[C@]5(C)CC[C@H]4C3(C)C)O[C@@H]2CO[C@@H]2O[C@H](CO)[C@@H](O)[C@H](O)[C@H]2O)[C@H](O)[C@H](O)[C@H]1O | XTT | 717 µM
CCOC(=O)c1c(CS(=O)(=O)c2ccccc2)n(C)c2ccc(CN3CCCC3)cc12 | resazurin | >50 µM
C/C(=C\c1cn(C)c2ccc(C#N)cc12)C(=O)Nc1ccc(C(C)(C)C)cc1 | MTT | 27.2 µM
CCOC(=O)c1c(C)n(C)c2ccc(CN3CCCC3)cc12 | resazurin | >50 µM
C[C@@H]1CCCCC1OCCCCCCN1C[C@H](O)[C@@H](O)[C@H](O)[C@H]1CO | MTT | >500 µM
COc1ccc2c(c1)c(/C=C(\C)C(=O)Nc1ccc(C(C)(C)C)cc1)cn2C(=O)c1ccccc1 | MTT | >100 µM
CC(C)=CCc1c(O)cc2oc3cc(O)c(O)c(CC=C(C)C)c3c(=O)c2c1O | MTT | 8.2 µM
C/C(=C\c1cn(S(=O)(=O)Cc2ccccc2)c2ccccc12)C(=O)Nc1ccc(C(C)(C)C)cc1 | MTT | 54.1 µM
CCOc1ccc2nc(NC(=O)Nc3cccc(OC)c3)sc2c1 | MTT | >100 µM
CC(=O)c1ccc(NC(=O)C2=c3nc(C)[nH]c(=O)c3=NC2)cc1 | MTS | >224 µM
C/C(=C\c1cn(C)c2ccccc12)C(=O)Nc1ccc(C(C)(C)C)cc1 | MTT | 19.3 µM
CC(C)=CCC/C=C/CC/C(C)=C/C=C/C(C)=C/C(=O)O | WST | 68 µM
CN(C)CCCOc1ccc2nc(N)n(CCCN(C)C)c2c1 |  | 665 µM

The first 4 rows once more:

| SMILES | method | result |
|---|---|---|
| C=Cc1c(C)c2cc3nc(c4c5nc(cc6[nH]c(cc1[nH]2)c(C)c6CC)C(C)C5C(=O)C4CC(=O)OC)[C@@H](CCC(=O)OC/C=C(\C)CCC[C@@H](C)CCC[C@@H](C)CCCC(C)C)[C@@H]3C | WST | 328 µg/mL |
| Cc1ccc(CNc2ccc3nc[nH]c3c2)o1 | MTT | >200 µM |
| N#Cc1c(SCc2ccncc2)sc2c(=O)[nH]c(=O)[nH]c12 | MTS | >224 µM |
| O=C(OC[C@H]1O[C@@H](OC(=O)c2cc(O)c(O)c(OC(=O)c3cc(O)c(O)c(O)c3)c2)[C@H](OC(=O)c2cc(O)c(O)c(OC(=O)c3cc(O)c(O)c(O)c3)c2)[C@@H](OC(=O)c2cc(O)c(O)c(OC(=O)c3cc(O)c(O)c(O)c3)c2)[C@@H]1OC(=O)c1cc(O)c(O)c(OC(=O)c2cc(O)c(O)c(O)c2)c1)c1cc(O)c(O)c(OC(=O)c2cc(O)c(O)c(O)c2)c1 | MTS | 146.1 µM |